Anti-infective test results gathered from many reports (values: NIAID ChemDB through PubChem).

All rows: whole-cell or culture tests; species: HIV-1; read-out: EC50

ECn: concentration that inhibits the pathogen or its effect by n%. Blank or dashed fields: not listed here. Conditions beyond the fields shown may differ between rows.

compound | method | strain or isolate | mutations | cell line | result
O=C(O)C(O)c1ccccc1 | p24 | BaL |  | U87 (CD4+ CCR5+) + U87 | 1 µg/mL
CCOC(=O)CNc1nc(NC(=O)Nc2cccc(C)c2)nc(Oc2cc(=O)oc3ccccc23)n1 | MTT | IIIB |  | MT-4 | >14.23 µg/mL
Cc1cn(CC(F)(F)C(F)(F)C(F)(F)COP(=O)(N[C@@H](C)C(=O)OC(C)C)Oc2ccccc2)c(=O)[nH]c1=O | RT activity | LAI |  | PBMC | >100 µM
NC(=O)c1cc2c([nH]c3ccccc32)c(-c2ccc(CO)o2)n1 | p24 | IIIB |  | C8166 | 1.45 µM
CC(C)C1=C2[C@H]3CC[C@@H]4[C@@]5(C)CC[C@H](OC(=O)[C@H]6C[C@@H](C(=O)O)C6(C)C)C(C)(C)[C@@H]5CC[C@@]4(C)[C@]3(C)CC[C@@]2([C@@H](O)CNC[C@@H](C)NC(=O)c2ccc(Cl)cc2)CC1=O | p24 / ELISA | 92HT599 |  | MT-2 | <1 µM
COc1ccc(CCNc2nc(NC(=O)Nc3ccccc3)nc(Oc3cc(=O)oc4ccccc34)n2)cc1OC | MTT | IIIB |  | MT-4 | >86.93 µg/mL
COc1ccc(-c2nnc(S(=O)(=O)[C@@H]3O[C@H](COC(C)=O)[C@@H](OC(C)=O)[C@H](OC(C)=O)[C@H]3OC(C)=O)n2N)cc1 |  | IIIB |  | MT-4 | >100 µM
CC(C)C1=C2[C@H]3CC[C@@H]4[C@@]5(C)CC[C@H](OC(=O)[C@H]6C[C@@H](C(=O)O)C6(C)C)C(C)(C)[C@@H]5CC[C@@]4(C)[C@]3(C)CC[C@@]2([C@@H](O)CNC(=O)C(CCN)NC(=O)c2ccc(Cl)cc2)CC1=O | p24 / ELISA | 92HT599 |  | MT-2 | <1 µM
CC(=O)N[C@@H](CCCCNC(=O)OCc1ccccc1)C(=O)O | cytopathic effect / XTT | IIIB |  | CEM-IW + CEM | >100 µM
CC(C)[C@@H]1CC[C@@H](C)C/C1=N\NC(N)=S |  | IIIB |  | MT-4 | >12.7 µg/mL
CCOC(=O)[C@H](C)NP(=O)(OCC(F)(F)C(F)(F)Cn1cnc2c(N)ncnc21)Oc1ccccc1 | RT activity | LAI |  | PBMC | 31 µM
C=CCN(N=O)C(=O)N(CCC)CCCC[C@H](NC(C)=O)C(=O)NCc1ccccc1 | cytopathic effect / XTT | IIIB |  | CEM-IW + CEM | >100 µM
CCOC(=O)CNc1nc(NC(=O)Nc2ccc3ccccc3c2)nc(Oc2cc(=O)oc3ccccc23)n1 | MTT | IIIB |  | MT-4 | >125 µg/mL
Cc1ccc(-n2c(SCC(=O)Nc3ccc(C)cc3Br)nnc2C(C)C)cc1 | luciferase | NL4-3 | RT-K103N Y181C | HeLa + HeLa-JC53 | >10 µM
CC(=O)N[C@@H](CCCNC(=O)N(CCCl)N=O)C(=O)NCc1ccccc1 | cytopathic effect / XTT | IIIB |  | CEM-IW + CEM | >100 µM
COc1ccc(-c2nnc(SN3CCOCC3)n2N)cc1 |  | IIIB |  | MT-4 | >100 µM
Nc1ncnc2c1ncn2CC(F)(F)C(F)(F)C(F)(F)CO | RT activity | LAI |  | PBMC | >100 µM
CC1CCC(C(C)C)/C(=N/NC(=S)Nc2ccc(Cl)cc2)C1 |  | IIIB |  | MT-4 | >2.4 µg/mL
CC(C)C1=C2[C@H]3CC[C@@H]4[C@@]5(C)CC[C@H](OC(=O)[C@H]6C[C@@H](C(=O)O)C6(C)C)C(C)(C)[C@@H]5CC[C@@]4(C)[C@]3(C)CC[C@@]2(CCNCC(C)(CCCCN)NC(=O)c2ccc(Cl)cc2)CC1=O | p24 / ELISA | 92HT599 |  | MT-2 | <1 µM
N#Cc1c(F)c(F)c2nc(N)nc(N)c2c1F | syncytia | IIIB |  | C8166 | 1.6 µg/mL
Cc1ccc(NC(=O)CSc2nnc(C)n2-c2cc(C)c(C)c3ccccc23)c(Cl)c1 | luciferase | NL4-3 | RT-Y188L | HeLa + HeLa-JC53 | 0.16 µM
CC(C)C#C[C@]1(C(F)(F)F)NC(=O)Nc2ccc(F)c(F)c21 | p24 |  | RT-K103N | MT-4 | <0.009 µM
CCCCCCCCCCc1nccnc1OCCCCO |  | LAI |  | CEM + CEM-SS | >100 µM
NS(=O)(=O)c1ccc(NC(=O)CSc2nnc(C(F)(F)F)n2-c2cccc3cccnc23)c(Cl)c1 | luciferase | NL4-3 | RT-Y188L | HeLa + HeLa-JC53 | 0.18 µM
CC(C)C1=C2[C@H]3CC[C@@H]4[C@@]5(C)CC[C@H](OC(=O)[C@H]6C[C@@H](C(=O)O)C6(C)C)C(C)(C)[C@@H]5CC[C@@]4(C)[C@]3(C)CC[C@@]2([C@@H](O)CNC(=O)C(C)(C)NC(=O)c2ccc(OCCN3CCOCC3)cc2)CC1=O | p24 / ELISA | 92HT599 |  | MT-2 | <1 µM
CC(=O)N[C@@H](CCCCN(Cc1ccccc1)C(=O)N(C)N=O)C(=O)NCc1ccccc1 | cytopathic effect / XTT | IIIB |  | CEM-IW + CEM | >100 µM
COc1ccc(-c2n[nH]c(=S)n2N)cc1 |  | IIIB |  | MT-4 | >100 µM
COc1ccc(CCNc2nc(NC(=O)Nc3cccc(Cl)c3)nc(Oc3cc(=O)oc4ccccc34)n2)cc1OC | MTT | IIIB |  | MT-4 | >25.23 µg/mL
Cc1ccc(-c2nnc3sc(CN4C(=O)c5ccccc5C4=O)nn23)cc1 |  | NNRTI-resistant N119 | RT-Y181C | MT-4 | >100 µM
N#Cc1c(Nc2ccccc2)c(Cl)c2nc(N)nc(N)c2c1F | syncytia | IIIB |  | C8166 | 0.6 µg/mL
CC(C)OC(=O)[C@H](C)NP(=O)(OCC(F)(F)C(F)(F)C(F)(F)Cn1cnc2c(N)ncnc21)Oc1ccccc1 | RT activity | LAI |  | PBMC | >100 µM
CC[C@H](C)[C@H](NC(=O)C[C@H](O)[C@H](CC(C)C)NC(=O)[C@@H](N)CC(N)=O)C(N)=O | ELISA / antigen | IIIB |  | MT-4 | >1000 µM
C=CCNC(=O)N(CCC[C@H](NC(C)=O)C(=O)NCc1ccccc1)Cc1ccccc1 | cytopathic effect / XTT | IIIB |  | CEM-IW + CEM | >100 µM
CN(C(=O)[C@H](Cc1ccccc1)NC(=O)CN1C(=O)NC2(CCCc3ccccc32)C1=O)c1ccccc1 | fluorescence | NL4-3 |  |  | >20 µM
CCOC(=O)CNc1nc(Nc2ccccc2Cl)nc(Oc2cc(=O)oc3ccccc23)n1 | MTT | IIIB |  | MT-4 | >67.7 µg/mL
CC(C)C1=C2[C@H]3CC[C@@H]4[C@@]5(C)CC[C@H](OC(=O)[C@H]6C[C@@H](C(=O)O)C6(C)C)C(C)(C)[C@@H]5CC[C@@]4(C)[C@]3(C)CC[C@@]2(CC(=O)NCC(C)(C)NC(=O)CN2CCS(=O)(=O)CC2)CC1=O | p24 / ELISA | 92HT599 |  | MT-2 | <1 µM
CC(=O)N[C@@H](CCC(N)=O)C(=O)N[C@@H](C)C(=O)N[C@@H](CC(C)C)[C@@H](O)CC(=O)N[C@H](C(=O)N[C@H](C(N)=O)C(C)C)C(C)C | ELISA / antigen | IIIB |  | MT-4 | 750 µM
Cc1cc2c(C)cccc2c(-n2c(C)nnc2SCC(=O)Nc2ccccc2Br)c1C | luciferase | NL4-3 | RT-Y188L | HeLa + HeLa-JC53 | 0.16 µM
COc1ccccc1NC(=S)Nc1nc(NCCc2ccc(OC)c(OC)c2)nc(Oc2cc(=O)oc3ccccc23)n1 | MTT | IIIB |  | MT-4 | >19.63 µg/mL
CC(C)C1=C2[C@H]3CC[C@@H]4[C@@]5(C)CC[C@H](OC(=O)[C@H]6C[C@@H](C(=O)O)C6(C)C)C(C)(C)[C@@H]5CC[C@@]4(C)[C@]3(C)CC[C@@]2([C@@H](O)CNCC(C)(CN)NC(=O)c2ccc(Cl)cc2)CC1=O | p24 / ELISA | 92HT599 |  | MT-2 | <1 µM
CC(=O)N[C@@H](CCC(N)=O)C(=O)N[C@@H](C)C(=O)N[C@@H](CC(C)C)[C@@H](O)CC(=O)N[C@H](C(N)=O)C(C)C | ELISA / antigen | IIIB |  | MT-4 | 500 µM
Cc1ccc(N(C)C(=O)[C@H](Cc2ccccc2)NC(=O)CN2C(=O)NC3(CCCc4ccccc43)C2=O)cc1 | fluorescence | NL4-3 |  |  | >20 µM
CC1=C2N3C[C@H](n4c(=O)n(C)c(=O)n43)C23CCC1n1c(=O)n(C)c(=O)n13 | cytopathic effect / XTT | RF |  | CEM + CEM-SS | >200 µg/mL
CCCCCCCCCCc1nccn(COCCO)c1=O |  | LAI |  | CEM + CEM-SS | >100 µM
CCOC(=O)[C@H](C)NP(=O)(OCC(F)(F)C(F)(F)Cn1cc(C)c(=O)[nH]c1=O)Oc1ccccc1 | RT activity | LAI |  | PBMC | 44 µM
Cc1ccc(-n2c(C)nnc2SCC(=O)Nc2ccc(C)cc2Cl)c(C)c1 | luciferase | NL4-3 | RT-K103N Y181C | HeLa + HeLa-JC53 | 0.06 µM
CC1CCC(C(C)C)/C(=N/NC(=O)Nc2cccc(Cl)c2)C1 |  | IIIB |  | MT-4 | >125 µg/mL
Cc1ccnc(C)c1C(=O)N1CCC(C)(N2CCN([C@@H](C)c3ccc(C(F)(F)F)cc3)[C@@H](C)C2)CC1 |  | BaL |  | TZM-bl | 0.17 µM
CCOC(=O)CNc1nc(Nc2ccccc2C)nc(Oc2cc(=O)oc3ccccc23)n1 | MTT | IIIB |  | MT-4 | >23.12 µg/mL
CSc1ccccc1NC(=O)CSc1nnc(C)n1-c1ccc(C)cc1 | luciferase | NL4-3 | RT-K103N Y181C | HeLa + HeLa-JC53 | 0.12 µM

For reference, 5 entries again:

| compound | method | strain or isolate | mutations | cell line | result |
|---|---|---|---|---|---|
| CC(C)C1=C2[C@H]3CC[C@@H]4[C@@]5(C)CC[C@H](OC(=O)[C@H]6C[C@@H](C(=O)O)C6(C)C)C(C)(C)[C@@H]5CC[C@@]4(C)[C@]3(C)CC[C@@]2(CCNCC(C)(CCCCN)NC(=O)c2ccc(Cl)cc2)CC1=O | p24 / ELISA | 92HT599 |  | MT-2 | <1 µM |
| C=CCNC(=O)N(CCC[C@H](NC(C)=O)C(=O)NCc1ccccc1)Cc1ccccc1 | cytopathic effect / XTT | IIIB |  | CEM-IW + CEM | >100 µM |
| Cc1ccnc(C)c1C(=O)N1CCC(C)(N2CCN([C@@H](C)c3ccc(C(F)(F)F)cc3)[C@@H](C)C2)CC1 |  | BaL |  | TZM-bl | 0.17 µM |
| CC(C)C1=C2[C@H]3CC[C@@H]4[C@@]5(C)CC[C@H](OC(=O)[C@H]6C[C@@H](C(=O)O)C6(C)C)C(C)(C)[C@@H]5CC[C@@]4(C)[C@]3(C)CC[C@@]2(CC(=O)NCC(C)(C)NC(=O)CN2CCS(=O)(=O)CC2)CC1=O | p24 / ELISA | 92HT599 |  | MT-2 | <1 µM |
| CCOC(=O)[C@H](C)NP(=O)(OCC(F)(F)C(F)(F)Cn1cc(C)c(=O)[nH]c1=O)Oc1ccccc1 | RT activity | LAI |  | PBMC | 44 µM |